In patent US20240116879A1, “AMILORIDE DERIVATIVES AND METHODS OF USING SAME FOR THE TREATMENT OF VIRAL INFECTIONS” (priority 2020, published 2024):

System: SARS-CoV-2 5′-region SL1
Format: binding
Conditions: 5:1 DMA to RNA

Row | Compound | NMR signal perturbation of SL1 (in words) | share of total observed correlation peaks with severe line broadening, SL1 (A- and C-selectively labeled SL1)
1 | CN(C)c1nc(N)c(C(=O)NC(=N)N)nc1-c1ccccc1 [DMA-132] | induced the migration of several correlation peaks to new spectral positions | –
2 | CN(C)c1nc(N)c(C(=O)NC(=N)N)nc1C#Cc1ccccc1 [DMA-135] | – | ~50%
3 | CN(C)c1nc(N)c(C(=O)NC(=N)N)nc1-c1ccc(-c2ccccc2)cc1 [DMA-155] | induced the migration of several correlation peaks to new spectral positions | –
